Where “and” joins values, the source holds several entries; their conditions need not be identical. Identical values can stand only once.

This experiment deals with S proteins (SΔ19) of BA.1, BA.2 and BA.4/5 Omicron subvariant pseudoviruses. The experiment in a line: cell-based or functional assay.

Turning to DXP-604 IgG, the IC50, pseudovirus assay (HIV platform) was 0.091 nM and 0.836 nM.

(Values after patent US20240209065A1.)
